Measured values reported in publication PMC4108184.

Assays:
[1] = test system: O=C1O[C@@H](COP(=O)(O)O)[C@H](O)[C@H]1O; experiment: purified protein; details: 2.5 mM Bicine pH 8.3, 0.2 M NaCl, zinc enzyme
[2] = test system: O=C1O[C@H](COP(=O)(O)O)[C@H](O)[C@H]1O; experiment: purified protein; details: 2.5 mM Bicine pH 8.3, 0.2 M NaCl, zinc enzyme

For “Ms0025 (MS53_0025) (Mycoplasmopsis synoviae 53; E34Q)”, the Km [1] was 1800 ± 200 µM, the kcat [1] was 0.58 s⁻¹ and the kcat/Km [1] was 320 M⁻¹ s⁻¹. For the same substance, the Km [2] was 700 ± 100 µM, the kcat [2] was 0.9 s⁻¹ and the kcat/Km [2] was 1300 M⁻¹ s⁻¹.

For “Ms0025 (MS53_0025) (Mycoplasmopsis synoviae 53; H100N)”, the Km [1] was 830 ± 60 µM, the kcat [1] was 0.64 s⁻¹ and the kcat/Km [1] was 770 M⁻¹ s⁻¹. For the same substance, the Km [2] was 2700 ± 200 µM.

In the case of “Ms0025 (MS53_0025) (Mycoplasmopsis synoviae 53; K29A)”, the Km [1] is reported as 750 ± 70 µM, the kcat [1] is reported as 0.42 s⁻¹ and the kcat/Km [1] is reported as 560 M⁻¹ s⁻¹. For the same substance, the Km [2] was 1400 ± 100 µM, the kcat [2] was 1.1 s⁻¹ and the kcat/Km [2] was 790 M⁻¹ s⁻¹.
